Data on one substance can be found in paper PMC3215733.

One may read the Km as the substrate concentration at which the rate is half of its maximum. Usually kcat/Km stands for the turnover number divided by the Michaelis constant.

Data set [1] has as its system Nc1nc2c(ncn2[C@@H]2O[C@H](COP(=O)(O)OP(=O)(O)O)[C@@H](O)[C@H]2O)c(=O)[nH]1. As to the kind of experiment: purified protein. To be noted: pH 7.5; 37.0 °C.
For data set [2], the system named is Nc1ncnc2c1ncn2[C@@H]1O[C@H](COP(=O)(O)OP(=O)(O)OP(=O)(O)O)[C@@H](O)[C@H]1O. As to the kind of experiment: purified protein. To be noted: pH 7.5; 37.0 °C.

For the substance (Mycobacterium tuberculosis H37Ra), in data set [1], the Km is 11.3 ± 0.6 mM and the catalytic efficiency (kcat/Km) was determined as 57000 M⁻¹ s⁻¹. For the same substance, the Km in data set [2] amounted to 1.35 ± 0.05 mM.
